Results from patent US7652025B2 (priority 2001, dated 2010).

Tested on: Lipopolysaccharide (LPS)-induced lethal sepsis
Details: ICR mice; LPS 20 mg/kg i.p.; compound 15 mg/kg s.c. two hours after LPS; control group 33.3%

## CN(C(=O)Cc1ccc(Cl)c(Cl)c1)[C@H]1CCCC[C@@H]1N1CCCC1 (racemic)
  survival rate at 24 hours after administration of LPS: 60%
